Anti-infective test results gathered from many reports (values: NIAID ChemDB through PubChem).

Common to all: whole-cell or culture tests; organism: HIV-1; read by: luminescence; measure: EC50

Neighbouring rows are from separate reports. Blank or dashed fields: not listed here. ECn: concentration that inhibits the pathogen or its effect by n%.

smiles | strain | cells | changes | setting | value
C#C[C@]1(COCOC(=O)OCCCCCCCCCCCCCCCC)O[C@@H](n2cnc3c(N)nc(F)nc32)C[C@@H]1O | NL4-3 | U373-CD4-CXCR4 | gp160 M184V |  | 0.019 µM
Cc1ccc(-c2cc(-c3ccccc3)n(-c3ccc(Br)cc3)n2)c(=O)[nH]1 | VB59 | TZM-bl |  |  | 179 µM
CC(C)CN(C)Cc1ccc2c(c1)C[C@H](CN=C(N)N)[C@H]2NC(=O)C(=O)Nc1ccc(Cl)c(F)c1 | JR-FL | Cf2Th-CD4/CCR5 |  |  | 11 µM
CCc1ccccc1-n1nc(-c2ccc(C)[nH]c2=O)cc1-c1ccccc1 | UG070 | TZM-bl |  |  | >28.17 µM
Clc1cc(/C=C/c2ccc(N3CCCC3)cc2)nc2ccccc12 | UG070 | TZM-bl |  |  | 9.26 µM
Cc1ncc(-c2ccc(N(C)CCOc3cc(F)cc(F)c3)cn2)c(N2CCC(C)(C)CC2)c1[C@H](OC(C)(C)C)C(=O)O | NL4-3 | MT-2 |  |  | 0.01 µM
Cc1ccc(-c2ccc(NC(=O)N3CCC4(CCO4)CC3)cc2)cc1 | CE0217 | TZM-bl |  | pseudotyped | >30 µM
CCC1(C)CCN(c2c(-c3ccc(OCCOc4ccccc4Cl)cn3)cnc(C)c2[C@H](OC(C)(C)C)C(=O)O)CC1 | NL4-3 | MT-2 |  |  | 7.1 µM
C[C@@H]1CCO[C@H]2Cn3cc(C(=O)NCc4ccc(F)cc4F)c(=O)c(O)c3C(=O)N12 | NL4-3 | MT-4 |  |  | 0.0026 µM
Cc1nc2ccccc2c(-c2cc(F)c3c(c2C)CCCO3)c1[C@H](OC(C)(C)C)C(=O)O | NL4-3 | MT-4 |  |  | 0.015 µM
C#C[C@]1(COC(=O)OCCCCCCCCCCCC)O[C@@H](n2cnc3c(N)nc(F)nc32)C[C@@H]1O | NL4-3 | U373-CD4-CXCR4 | gp160 M184V |  | 0.0109 µM
Cc1ncc(-c2ccc(NCCOc3cc(F)cc(F)c3)cn2)c(N2CCC(C)(C)CC2)c1[C@H](OC(C)(C)C)C(=O)O | NL4-3 | MT-2 |  |  | 0.0079 µM
CC1(C)CC=C(c2cn(-c3nccc(C(=O)NC4CCC(N5CC6CCC(C5)O6)CC4)n3)c3ccc(F)c([C@H](OC(C)(C)C)C(=O)O)c23)CC1 | NL4-3 | MT-4 | A129T |  | 0.0068 µM
COc1ccc(/C=C/c2cc(Cl)c3cc(Cl)ccc3n2)cc1 | UG070 | TZM-bl |  |  | 109 µM
Cc1ncc(-c2ccc(OCC(C)C)cn2)c(N2CCC3(CCOC3)CC2)c1[C@H](OC(C)(C)C)C(=O)O | NL4-3 | MT-2 |  |  | 22.3 µM
Cc1ccc(/C=C/c2cc(Cl)c3cc(Cl)ccc3n2)cc1 | UG070 | TZM-bl |  |  | 119 µM
Cc1ncc(-c2ccc(OCC3CCC3)cn2)c(N2CCC3(CCCC3)CC2)c1[C@H](OC(C)(C)C)C(=O)O | NL4-3 | MT-2 |  |  | 14.5 µM
CC(C)N(C)Cc1ccc2c(c1)C[C@H](CN=C(N)N)[C@H]2NC(=O)C(=O)Nc1ccc(Cl)c(F)c1 | JR-FL | Cf2Th-CD4/CCR5 |  |  | 12.5 µM
Cc1ncc(-c2ccc(OCCc3ccc(F)cc3)cn2)c(N2CCC3(CC2)CC3(F)F)c1[C@H](OC(C)(C)C)C(=O)O | NL4-3 | MT-2 |  |  | 1.6 µM
Cc1cn(C2CC(n3nnc(C4(C(F)(F)F)OC(=O)Nc5ccc(Cl)cc54)c3C3CC3)C(CO)O2)c(=O)[nH]c1=O | VB59 | TZM-bl |  |  | 1.43 µg/mL
Cc1ncc(-c2cnc(OCCN3CCSCC3)c(F)c2)c(N2CCC(C)(C)CC2)c1[C@H](OC(C)(C)C)C(=O)O | NL4-3 | MT-2 |  |  | 0.0016 µM
Cc1ccc(-n2nc(-c3ccc(C)[nH]c3=O)cc2-c2ccccc2)c(C)c1 | UG070 | TZM-bl |  |  | 35.89 µM
COCCC(C)Oc1ccc(-c2cnc(C)c([C@H](OC(C)(C)C)C(=O)O)c2N2CCC(C)(C)CC2)nc1 | NL4-3 | MT-2 |  |  | 0.0008 µM
Cc1ncc(-c2ccc(OCC3CCOC3)cn2)c(N2CCC3CCCCC3C2)c1[C@H](OC(C)(C)C)C(=O)O | NL4-3 | MT-2 |  |  | 4.9 µM
COC(C)C(C)Oc1ncc(-c2cnc(C)c([C@H](OC(C)(C)C)C(=O)O)c2N2CCC(C)(C)CC2)cc1F | NL4-3 | MT-2 |  |  | 0.0034 µM
CN(CC(=O)O)Cc1ccc2c(c1)C[C@H](CN=C(N)N)[C@H]2NC(=O)C(=O)Nc1ccc(Cl)c(F)c1 | AD8 | Cf2Th-CD4/CCR5 |  |  | 15.3 µM
COc1cccc(-n2nc(-c3ccc(C)[nH]c3=O)cc2-c2ccccc2)c1 | VB59 | TZM-bl |  |  | >280 µM
C#C[C@]1(COC(=O)OCCCCCCCCCCCCCCCCCC)O[C@@H](n2cnc3c(N)nc(F)nc32)C[C@@H]1O | NL4-3 | U373-CD4-CXCR4 | gp160 M184V |  | 0.0411 µM
Cc1ncc(-c2ccc(OCCc3ccc(F)cc3)cn2)c(N2CCC3(CCCC3)CC2)c1[C@H](OC(C)(C)C)C(=O)O | NL4-3 | MT-2 |  |  | 1.7 µM
Clc1ccc2nc(/C=C/c3ccc(OCc4ccccc4)cc3)cc(Cl)c2c1 | VB59 | TZM-bl |  |  | 55.62 µM
Cc1ccc(-c2cc(-c3ccccc3)n(-c3ccc(C)c(C)c3)n2)c(=O)[nH]1 | UG070 | TZM-bl |  |  | 464 µM
Cc1ncc(-c2ccc(OCC(C)C)cn2)c(N2CC3CCCC3C2)c1[C@H](OC(C)(C)C)C(=O)O | NL4-3 | MT-2 |  |  | 36 µM
Cc1ncc(-c2ccc(OC[C@H](C)Oc3ccccc3)cn2)c(N2CCC(C)(C)CC2)c1[C@H](OC(C)(C)C)C(=O)O | NL4-3 | MT-2 |  |  | 0.001 µM
C#C[C@]1(COCOC(=O)OC(C)C)O[C@@H](n2cnc3c(N)nc(F)nc32)C[C@H]1O | NL4-3 | U373-CD4-CXCR4 | gp160 M184V |  | 0.06 µM
Cc1ncc(-c2cnc(OCCCN3CCCCC3)c(F)c2)c(N2CCC(C)(C)CC2)c1[C@H](OC(C)(C)C)C(=O)O | NL4-3 | MT-2 |  |  | 0.0191 µM
Clc1cc(/C=C/c2cccc3ccccc23)nc2ccccc12 | UG070 | TZM-bl |  |  | 76 µM
Cc1ncc(-c2cnc(OCCOc3ccccc3)c(F)c2)c(N2CCC(C)(C)CC2)c1[C@H](OC(C)(C)C)C(=O)O | NL4-3 | MT-2 |  |  | 0.0025 µM
CCC1(C)CCN(c2c(-c3ccc(OCC4CCOC4)cn3)cnc(C)c2[C@H](OC(C)(C)C)C(=O)O)CC1 | NL4-3 | MT-2 |  |  | 3.9 µM
COC(C(C)C)C(C)Oc1ncc(-c2cnc(C)c([C@H](OC(C)(C)C)C(=O)O)c2N2CCC(C)(C)CC2)cc1F | NL4-3 | MT-2 |  |  | 0.0036 µM
Cc1ccc(-c2cc(-c3ccccc3)n(-c3ccc(C(C)C)cc3)n2)c(=O)[nH]1 | VB59 | TZM-bl |  |  | 15.34 µM

Repeating the first 4 entries:

smiles | strain | cells | changes | setting | value
C#C[C@]1(COCOC(=O)OCCCCCCCCCCCCCCCC)O[C@@H](n2cnc3c(N)nc(F)nc32)C[C@@H]1O | NL4-3 | U373-CD4-CXCR4 | gp160 M184V |  | 0.019 µM
Cc1ccc(-c2cc(-c3ccccc3)n(-c3ccc(Br)cc3)n2)c(=O)[nH]1 | VB59 | TZM-bl |  |  | 179 µM
CC(C)CN(C)Cc1ccc2c(c1)C[C@H](CN=C(N)N)[C@H]2NC(=O)C(=O)Nc1ccc(Cl)c(F)c1 | JR-FL | Cf2Th-CD4/CCR5 |  |  | 11 µM
CCc1ccccc1-n1nc(-c2ccc(C)[nH]c2=O)cc1-c1ccccc1 | UG070 | TZM-bl |  |  | >28.17 µM